For at least one entry, the source does not settle the construct or the ends of the probe.
Target: LsrR (GST-LsrR) (UniProt P76141)
Experiment: EMSA
Settings: 2-6 uM LsrR, 5 nM probe, complex abolished by unlabeled p-cysN; EMSA: Light Shift EMSA kit (binding buffer not stated), 4% native PAGE, 100 V, 4 C; recombinant protein; residues 1-317; protein details: GST; label: Cy5.5; probe letters rebuilt from the primers and the genome

Amino acid sequences for entries named in this document (tags omitted). A change or cut given only in a name is not applied to a line headed by its entry.
UniProt P76141: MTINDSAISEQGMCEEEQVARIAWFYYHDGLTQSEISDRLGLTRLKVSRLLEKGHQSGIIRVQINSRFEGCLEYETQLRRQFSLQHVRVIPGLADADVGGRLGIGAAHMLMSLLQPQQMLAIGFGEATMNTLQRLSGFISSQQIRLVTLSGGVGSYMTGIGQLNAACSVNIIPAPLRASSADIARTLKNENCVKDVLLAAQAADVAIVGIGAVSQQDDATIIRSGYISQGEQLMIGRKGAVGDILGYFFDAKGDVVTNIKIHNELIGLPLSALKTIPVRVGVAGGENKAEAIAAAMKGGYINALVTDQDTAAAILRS

## AATCATCGAAGAGATGCTGGTTTCCACCACCAGTGAACGTCAGGGCCGCGTGATTGACCGCGACCAGGCGGGGTCTATGGAGCTGAAAAAACGTCAGGGGTATTTTTAAGATGAACACCGCACTTGCACAA (double strand) [p-cysN (cysN promoter, 131 bp)]
  binding result: binds

— publication PMC12798060
